43 molecules from patent publication US10087173B2, “Substituted aminothiazoles as inhibitors of cancers, including hepatocellular carcinoma, and as inhibitors of hepatitis virus replication” (BARUCH S. BLUMBERG INSTITUTE, priority 2011, dated 2018) can be followed below.

Series [1] relates to THLE2 cells. Kind of series: MTT cell viability assay, THLE2 cells, 72 h. It is filed as cell-based. As to conditions: Selective Index: ratio of CC50 in THLE2 over CC50 in Huh7. The source says: Huh-7 cells and derived from hepatocellular carcinoma cells, and were donated by Dr. Xuanyong Lu, (Drexel University College of Medicine, Doylestown, Pa.). THLE-2 were purchased from American Type Culture Collection (Manassas, Va.). PH5CH were donated by Dr. Masayuki Noguchi (University of Tsukuba, Ibaraki, Japan). THLE-2 and PH5CH have been immortalized through stable transfection of the SV40 large T antigen in normal hepatocytes, and are thus cell lines that are representative of normal hepatocytes rather than HCC cells. […] All cell lines were cultured and maintained in 5% CO2 at 37° C. Huh-7 were maintained in the culture media DMEM/F12 (Dulbecco's Modified Eagle Medium) with 10% Fetal bovine serum (FBS), 100 μg/mL penicillin, 100 units/mL streptomycin, and 50 μg/mL normocin. THLE-2 and PH5CH were maintained in the culture media Brochial Epithelial Growth Media (BEGM) with 10% FBS, 100 μg/mL penicillin, 100 units/mL streptomycin, with the following additives form the prepackaged kit: Bovine pituitary extract (BPE), insulin, hydrocortisone, retinoic acid, transferrin, triiodothyronine, supplemented with 5 ng/ml human epidermal growth factor and 70 ng/ml phosphoethanolamine (Lonza Walkersville Inc., Walkersville, Md.).
(§1) Huh7 cells were plated on 96-well plates at 2.0×10^4 cells per well to permit grow in the presence of compounds of the disclosure. Compounds of the disclosure were prediluted and transferred to cell plates by automated liquid handling. Cells were incubated with compounds of the disclosure for 72 hours, after which culture growth and viability were assessed by addition of 50 μg/mL 3-(4,5-Dimethyl-2-thiazolyl)-2,5-diphenyl-2H-tetrazolium bromide (MTT) incubation for 4 hours at 37° C. Solubilization buffer (0.01M HCl, 10% SDS) was added followed by incubation at 37° C. overnight. Absorbance was measured at 570 nm (reference 630 nm). Compound of the disclosure were tested in Huh7, THLE-2 and PH5CH, over eight-point dilutions in half-log steps, testing 50.0, 16.6, 5.0, 1.66, 0.5, 0.166, 0.05, and 0.016 μM in 0.5% DMSO, with each concentration in duplicate wells. […] Each compound was tested from 2 to 7 times in separate assay trials.
(§2) Selectivity of toxicity in HCC-derived cells over normal liver-derived cells is important for the purposes of developing a therapy that specifically targets the cancer with low toxicity for […]. The Selective Index (SI) is the ratio of CC50 in normal cells (THLE2 or PH5CH) over the CC50 in the liver cancer derived cells; thus, the higher the number, the lower the potential toxicity at an efficacious dose.
On the technique in general: Formazan colour is commonly taken as a measure of viable cells.

The subject of series [2] is PH5CH cells. Kind of series: MTT cell viability assay, PH5CH cells, 72 h. It is filed as cell-based. Particulars: Selective Index: ratio of CC50 in PH5CH over CC50 in Huh7.
From the text: Huh-7 cells and derived from hepatocellular carcinoma cells, and were donated by Dr. Xuanyong Lu, (Drexel University College of Medicine, Doylestown, Pa.). THLE-2 were purchased from American Type Culture Collection (Manassas, Va.). PH5CH were donated by Dr. Masayuki Noguchi (University of Tsukuba, Ibaraki, Japan). THLE-2 and PH5CH have been immortalized through stable transfection of the SV40 large T antigen in normal hepatocytes, and are thus cell lines that are representative of normal hepatocytes rather than HCC cells. THLE2 have been confirmed to not form tumors in athymic mice. All cell lines were cultured and maintained in 5% CO2 at 37° C. Huh-7 were maintained in the culture media DMEM/F12 (Dulbecco's Modified Eagle Medium) with 10% Fetal bovine serum (FBS), 100 μg/mL penicillin, 100 units/mL streptomycin, and 50 μg/mL normocin. THLE-2 and PH5CH were maintained in the culture media Brochial Epithelial Growth Media (BEGM) with 10% FBS, 100 μg/mL penicillin, 100 units/mL streptomycin, with the following additives form the prepackaged kit: Bovine pituitary extract (BPE), insulin, hydrocortisone, retinoic acid, transferrin, triiodothyronine, supplemented with 5 ng/ml human epidermal growth factor and 70 ng/ml phosphoethanolamine (Lonza Walkersville Inc., Walkersville, Md.).
as §1, §2

Consider `c1ccc(-c2csc(Nc3ncccn3)n2)nc1` [Entry 1], for which the “THLE2/Huh7 SI” value in series [1] is 28.833. Also, in series [2], the “PH5CH/Huh7 SI” value turned out to be 36.058.

For `c1ccc(-c2csc(Nc3ncccn3)n2)cc1` [Entry 3], the “THLE2/Huh7 SI” value in series [1] was found to be 1.423.

On to `c1cnc(Nc2nc(-c3cccnc3)cs2)nc1` [Entry 4], for which the “THLE2/Huh7 SI” value in series [1] stood at 1.374.

Regarding `c1cnc(Nc2nc(-c3ccncc3)cs2)nc1` [Entry 5], the “THLE2/Huh7 SI” value in series [1] is 3.407.

For `c1ccc(Nc2nc(-c3ccccc3)cs2)cc1` [Entry 7], the “THLE2/Huh7 SI” value in series [1] was found to be 2.050.

Consider `Cc1ccnc(-c2csc(Nc3ncccn3)n2)c1` [Entry 8], for which, in series [1], the “THLE2/Huh7 SI” value is recorded as 24.905. Further, the “PH5CH/Huh7 SI” value in series [2] worked out at 60.358.

Take `Brc1sc(Nc2ncccn2)nc1-c1ccccn1` [Entry 9]: the “THLE2/Huh7 SI” value in series [1] is 11.816.

For `Brc1cccc(-c2csc(Nc3ncccn3)n2)n1` [Entry 10], in series [1], the “THLE2/Huh7 SI” value came to 1.247.

For the molecule `c1ccc(-c2csc(Nc3cnccn3)n2)nc1` [Entry 11], the “THLE2/Huh7 SI” value in series [1] worked out at 0.108.

On to `c1ccc(-c2csc(Nc3ccncn3)n2)nc1` [Entry 12], for which the “THLE2/Huh7 SI” value in series [1] was determined as 1.464.

Take `Clc1cnc(Nc2nc(-c3ccccn3)cs2)nc1` [Entry 13]: the “THLE2/Huh7 SI” value in series [1] was 1.428.

Regarding `Brc1cnc(Nc2nc(-c3ccccn3)cs2)nc1` [Entry 14], in series [1], the “THLE2/Huh7 SI” value worked out at 1.290.

`CN(c1ncccn1)c1nc(-c2ccccn2)cs1` [Entry 15]: the “THLE2/Huh7 SI” value in series [1] is 9.238. Besides, the “PH5CH/Huh7 SI” value in series [2] is 9.353.

On to `CC(C)N(c1ncccn1)c1nc(-c2ccccn2)cs1` [Entry 16], for which the “THLE2/Huh7 SI” value in series [1] stood at 1.945. Further, the “PH5CH/Huh7 SI” value in series [2] worked out at 1.945.

`OCCN(c1ncccn1)c1nc(-c2ccccn2)cs1` [Entry 17]: the “THLE2/Huh7 SI” value in series [1] amounted to 1.022. For the same molecule, the “PH5CH/Huh7 SI” value in series [2] is on record as 1.022.

For `c1ccc(CN(c2ncccn2)c2nc(-c3ccccn3)cs2)cc1` [Entry 18], the “THLE2/Huh7 SI” value in series [1] was determined as 0.995. Besides, the “PH5CH/Huh7 SI” value in series [2] is recorded as 0.937.

As to `CCOC(=O)c1sc(Nc2ncccn2)nc1-c1ccccn1` [Entry 19], the “THLE2/Huh7 SI” value in series [1] worked out at 106.972. Moreover, the “PH5CH/Huh7 SI” value in series [2] was found to be 121.642.

Consider `OCc1sc(Nc2ncccn2)nc1-c1ccccn1` [Entry 20], for which, in series [1], the “THLE2/Huh7 SI” value was 2.748. For the same molecule, in series [2], the “PH5CH/Huh7 SI” value was 4.137.

With `CCc1sc(Nc2ncccn2)nc1-c1ccccn1` [Entry 21], in series [1], the “THLE2/Huh7 SI” value worked out at 1.602. Further, the “PH5CH/Huh7 SI” value in series [2] came out at 2.859.

Turning to `Cc1sc(Nc2ncccn2)nc1-c1ccccn1` [Entry 22], the “THLE2/Huh7 SI” value in series [1] came to 7.232. The “PH5CH/Huh7 SI” value in series [2] came to 7.086.

In the case of `Cc1ccc2nc(Nc3nc(-c4ccccn4)cs3)sc2c1` [Entry 23], in series [1], the “THLE2/Huh7 SI” value worked out at 0.805. In series [2], the “PH5CH/Huh7 SI” value was determined as 0.807.

For the molecule `CC(C)c1sc(Nc2ncccn2)nc1-c1ccccn1` [Entry 24], in series [1], the “THLE2/Huh7 SI” value was found to be 4.434. In addition, the “PH5CH/Huh7 SI” value in series [2] came to 4.434.

In the case of `CCCCCc1sc(Nc2ncccn2)nc1-c1ccccn1` [Entry 25], the “THLE2/Huh7 SI” value in series [1] came out at 1.932. Also, in series [2], the “PH5CH/Huh7 SI” value amounted to 1.932.

`Cc1cnc(-c2csc(Nc3ncccn3)n2)c(C)c1` [Entry 27]: the “THLE2/Huh7 SI” value in series [1] turned out to be 0.816. In series [2], the “PH5CH/Huh7 SI” value is 17.397.

Take `Oc1cccc(-c2csc(Nc3ncccn3)n2)n1` [Entry 28]: the “THLE2/Huh7 SI” value in series [1] was determined as 1.083. Further, the “PH5CH/Huh7 SI” value in series [2] worked out at 1.083.

`N#Cc1sc(Nc2ncccn2)nc1-c1ccccn1` [Entry 29]: the “THLE2/Huh7 SI” value in series [1] is 3125. Also, in series [2], the “PH5CH/Huh7 SI” value is on record as 3125.

For `Cc1ccnc(Nc2nc(-c3ccccn3)cs2)n1` [Entry 30], in series [1], the “THLE2/Huh7 SI” value came to 1.000. For the same molecule, the “PH5CH/Huh7 SI” value in series [2] turned out to be 1.000.

On to `CCOC(=O)c1sc(Nc2nccc(C)n2)nc1-c1ccccn1` [Entry 31], for which the “THLE2/Huh7 SI” value in series [1] is recorded as 3125. Further, in series [2], the “PH5CH/Huh7 SI” value worked out at 3125.

`c1cnc(Nc2nc(-c3ccc4ccccc4n3)cs2)nc1` [Entry 32]: the “THLE2/Huh7 SI” value in series [1] is 0.160. Also, the “PH5CH/Huh7 SI” value in series [2] was 1.000.

For `c1ccc(-c2nc(Nc3ncccn3)sc2C2CCCCC2)nc1` [Entry 33], the “THLE2/Huh7 SI” value in series [1] is listed as 0.071. For the same molecule, the “PH5CH/Huh7 SI” value in series [2] worked out at 1.000.

Regarding `FC(F)(F)c1ccnc(Nc2nc(-c3ccccn3)cs2)n1` [Entry 34], in series [1], the “THLE2/Huh7 SI” value came out at 1.420. Further, the “PH5CH/Huh7 SI” value in series [2] is recorded as 1.878.

As for `CCOC(=O)c1sc(Nc2ncccn2)nc1-c1cc(C)ccn1` [Entry 35], the “THLE2/Huh7 SI” value in series [1] is given as 7.888. Moreover, the “PH5CH/Huh7 SI” value in series [2] turned out to be 8.317.

As to `CCOC(=O)c1sc(Nc2ncccn2)nc1-c1cccc(C)n1` [Entry 36], the “THLE2/Huh7 SI” value in series [1] is 1.000. Moreover, the “PH5CH/Huh7 SI” value in series [2] is on record as 1.000.

Take `Cl.O=C(NCc1ccccc1)c1sc(Nc2ncccn2)nc1-c1ccccn1` [Entry 37]: the “THLE2/Huh7 SI” value in series [1] is 2.818. Besides, in series [2], the “PH5CH/Huh7 SI” value is recorded as 1.775.

For `COC(=O)c1sc(Nc2ncccn2)nc1-c1ccccn1` [Entry 38], the “THLE2/Huh7 SI” value in series [1] is reported as 23.591. For the same molecule, the “PH5CH/Huh7 SI” value in series [2] stood at 30.978.

Consider `CNC(=O)c1sc(Nc2ncccn2)nc1-c1ccccn1.Cl` [Entry 39], for which, in series [1], the “THLE2/Huh7 SI” value is reported as 0.792. For the same molecule, in series [2], the “PH5CH/Huh7 SI” value is 0.222.

In the case of `CN(Cc1cnc2nc(N)nc(N)c2n1)c1ccc(C(=O)NC(CCC(=O)NCCOCCOCCOCCOCCOCCNC(=O)c2sc(Nc3ncccn3)nc2-c2ccccn2)C(=O)OC(C)(C)C)cc1` (stereo not drawn) [Entry 40], the “THLE2/Huh7 SI” value in series [1] was found to be 1.435. For the same molecule, the “PH5CH/Huh7 SI” value in series [2] stood at 1.435.

On to `Cl.NC(=O)c1sc(Nc2ncccn2)nc1-c1ccccn1` [Entry 41], for which, in series [1], the “THLE2/Huh7 SI” value was determined as 0.532. Further, the “PH5CH/Huh7 SI” value in series [2] was 1.000.

For the molecule `CC(=O)OCc1sc(Nc2ncccn2)nc1-c1ccccn1` [Entry 42], the “THLE2/Huh7 SI” value in series [1] is 1.274. Also, the “PH5CH/Huh7 SI” value in series [2] stood at 1.274.

As to `CCCC(=O)OCc1sc(Nc2ncccn2)nc1-c1ccccn1` [Entry 43], in series [1], the “THLE2/Huh7 SI” value amounted to 4.544. The “PH5CH/Huh7 SI” value in series [2] stood at 4.544.

Consider `CC(C)(C)OC(=O)c1sc(N(c2ncccn2)C(C)(C)C)nc1-c1ccccn1` [Entry 44], for which, in series [1], the “THLE2/Huh7 SI” value is recorded as 2.442. Also, the “PH5CH/Huh7 SI” value in series [2] amounted to 2.442.

For the molecule `Oc1cccc(Nc2nc(-c3ccccc3)cs2)c1` [Entry 45], the “THLE2/Huh7 SI” value in series [1] was found to be 6.250.

As to `N#Cc1sc(Nc2ncccn2)nc1-c1ccccn1` [Entry 47], the “THLE2/Huh7 SI” value in series [1] was found to be 3125.00. The “PH5CH/Huh7 SI” value in series [2] turned out to be 3125.00.
